The results in this text go back to patent publication US5536648.

The test system of the data set is GST-GCN4 3.12 (partial GCN4 including C-terminal DNA-binding region) (Saccharomyces cerevisiae). The experiment in a line: binding assay. The settings on record: microtitre plate capture, binds with 1 ug/ml carrier human DNA, purified recombinant protein, label: 5' biotin on primer c (CATAGCAGGAACTACTAGTA).

For at least one entry, the source does not settle the construct or the ends of the probe.

In the case of “AGCGGATGACTCATTTTTTTTTCCTTGTCTTATGTCCAGAA (double strand)”, the binding result (oligo called d2 in results, d1 in methods) is “binds”.
Consider “AAGTGACTCAAGTGACTCAATCCTTGTCTTATGTCCAGAA (double strand) [HIV p24 c-d PCR product with GCN4 site (primer d shown)]”, for which, under “MTPBS-Tween, 20 C”, the binding result was “binds”.
